# DMS reactivity of the HIV-1 5' RNA in monomer and dimer

Values reported by Ye et al. 2022 (doi:10.1038/s41594-022-00746-2).

Sequence of the HIV-1 NL4-3 5' RNA, positions 1 to 437, as numbered in the source:
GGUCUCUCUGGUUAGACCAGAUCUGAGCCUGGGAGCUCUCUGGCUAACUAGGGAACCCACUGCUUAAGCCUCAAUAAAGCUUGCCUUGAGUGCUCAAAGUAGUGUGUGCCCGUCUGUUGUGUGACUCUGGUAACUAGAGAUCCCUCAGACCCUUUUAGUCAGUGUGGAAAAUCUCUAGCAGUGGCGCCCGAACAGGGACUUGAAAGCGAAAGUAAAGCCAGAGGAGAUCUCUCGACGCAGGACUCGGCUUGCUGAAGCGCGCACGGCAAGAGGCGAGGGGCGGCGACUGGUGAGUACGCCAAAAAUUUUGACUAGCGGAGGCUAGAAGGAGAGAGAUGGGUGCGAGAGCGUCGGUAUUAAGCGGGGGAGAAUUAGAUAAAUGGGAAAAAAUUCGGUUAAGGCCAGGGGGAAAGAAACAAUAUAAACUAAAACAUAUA

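Randomly mutated transcripts starting with one, two or three G (1G, 2G, 3G), capped or uncapped, were folded for 30 min at 37 °C. Monomer and dimer bands were cut from native gels after folding in high salt (300 mM KCl, 5 mM MgCl2) or low salt (40 mM KCl, 0.1 mM MgCl2). Gel slices were treated with 170 mM dimethyl sulfate for 15 min at 37 °C and read by mutational profiling against an ethanol control.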

Values are winsor-normalised DMS reactivities of A and C; higher means more reactive, usually unpaired.
One numbering serves 1G, 2G and 3G.
A position is written with its base.

With A97 (domain PolyA) the assay gave 3G capped low-salt monomer 0.67; 1G uncapped high-salt monomer 0.45. For A98 (domain PolyA) the result was 3G capped low-salt monomer 0.60; 1G uncapped high-salt monomer 0.39. With A101 (domain PolyA) the assay gave 3G capped low-salt monomer 0.27; 1G uncapped high-salt monomer 0.20. With C109 (domain U5) the assay gave 3G capped low-salt monomer 0.06; 1G uncapped high-salt monomer 0.20. C110 (domain U5) gave 3G capped low-salt monomer 0.13; 1G uncapped high-salt monomer 0.20. With C111 (domain U5) the assay gave 3G capped low-salt monomer 0.31; 1G uncapped high-salt monomer 0.34. With C114 the assay gave 3G capped low-salt monomer 0.16; 1G uncapped high-salt monomer 0.29. A124 gave 3G capped low-salt monomer 1.43; 1G uncapped high-salt monomer 1.10.

With C125 (domain PAS) the assay gave 3G capped low-salt monomer 0.03; 1G uncapped high-salt monomer 0.10. With C127 (domain PAS) the assay gave 3G capped low-salt monomer 0.02; 1G uncapped high-salt monomer 0.04. A132 (domain PBS) read 3G capped low-salt monomer 0.43; 1G uncapped high-salt monomer 0.55. With A133 (domain PBS) the assay gave 3G capped low-salt monomer 1.30; 1G uncapped high-salt monomer 1.62. With C134 (domain PBS) the assay gave 3G capped low-salt monomer 0.15; 1G uncapped high-salt monomer 0.15. A136 (domain PBS) read 3G capped low-salt monomer 0.08; 1G uncapped high-salt monomer 0.09. A138 (domain PBS) gave 3G capped low-salt monomer 0.11; 1G uncapped high-salt monomer 0.12. A140 (domain PBS) gave 3G capped low-salt monomer 0.39; 1G uncapped high-salt monomer 0.41.

C142 (domain PBS) gave 3G capped low-salt monomer 0.08; 1G uncapped high-salt monomer 0.08. With C143 (domain PBS) the assay gave 3G capped low-salt monomer 0.02; 1G uncapped high-salt monomer 0.04. C144 (domain PBS) gave 3G capped low-salt monomer 0.02; 1G uncapped high-salt monomer 0.04. C146 (domain PBS) gave 3G capped low-salt monomer 0.12; 1G uncapped high-salt monomer 0.12. A147 (domain PBS) gave 3G capped low-salt monomer 0.41; 1G uncapped high-salt monomer 0.43. A149 (domain PBS) gave 3G capped low-salt monomer 0.08; 1G uncapped high-salt monomer 0.09. C150 (domain PBS) read 3G capped low-salt monomer 0.05; 1G uncapped high-salt monomer 0.07. C151 (domain PBS) read 3G capped low-salt monomer 0.80; 1G uncapped high-salt monomer 0.91.

C152 (domain PBS) gave 3G capped low-salt monomer 0.85; 1G uncapped high-salt monomer 0.92. With A157 (domain PBS) the assay gave 3G capped low-salt monomer 0.89; 1G uncapped high-salt monomer 0.95. For C160 (domain PBS) the result was 3G capped low-salt monomer 0.05; 1G uncapped high-salt monomer 0.06. For A161 (domain PBS) the result was 3G capped low-salt monomer 0.44; 1G uncapped high-salt monomer 0.49. For A168 (domain PBS) the result was 3G capped low-salt monomer 0.48; 1G uncapped high-salt monomer 0.47. With A169 (domain PBS) the assay gave 3G capped low-salt monomer 0.75; 1G uncapped high-salt monomer 0.72.

Excerpt, the final 3 entries:

position,domain,3G capped low-salt monomer,1G uncapped high-salt monomer
A161,PBS,0.44,0.49
A168,PBS,0.48,0.47
A169,PBS,0.75,0.72